Measured values from several laboratories, pooled; numbers as filed in NIAID ChemDB.

Shared fields: whole-cell or culture tests; species: Candida albicans; measure: zone

Blank or dashed fields: not listed here.

| smiles | strain | method | dose | value |
|---|---|---|---|---|
| CC(=O)C1=NN(c2ccccc2)C2=Nc3nccc(-c4nn(-c5ccccc5)cc4-c4ccc([N+](=O)[O-])cc4)c3C(=O)C12 | - | agar diffusion / agar | 2.5 mg/mL | 7 mm |
| COc1ccc(-c2cc(C(F)(F)F)c3c(-c4ccc(C)cc4)nn(-c4ccc(S(N)(=O)=O)cc4)c3n2)cc1 | MTCC 227 | agar diffusion / agar | 4000 µg/mL | 0 mm |
| Clc1ccc(-c2cn3nc(Cl)sc3n2)cc1 | - | agar diffusion | 50 µg/mL | 12 mm |
| O=C(CN1C(=O)S/C(=C\c2c(Cl)cccc2Cl)C1=O)c1ccc(Cl)cc1 | ATCC 90028 | agar diffusion / agar | 5000 µg/mL | 18 mm |
| CCc1c(Cc2ccc(Cl)cc2)nc(SCCN2CCCCC2)[nH]c1=O | ATCC 10231 | agar diffusion / agar | 200 µg/disc | 30 mm |
| COc1ccc(-c2nn(-c3ccccc3)cc2C2CC(c3ccc(-c4ccccc4)cc3)=NN2c2ccccc2)cc1 | MTCC 227 | - | 500 µg/mL | 0 mm |
| CCc1c(Cc2ccc(C)cc2)[nH]c(=S)[nH]c1=O | ATCC 10231 | agar diffusion / agar | 200 µg/disc | <10 mm |
| COC1=CC(=O)C[C@@H](C)[C@]12Oc1c(Cl)c(OC)cc(OC)c1C2=O | - | agar diffusion | 10 µg/mL | 20 mm |
| Cc1c(Cc2ccc(Cl)cc2)nc(SCCN2CCOCC2)[nH]c1=O | ATCC 10231 | agar diffusion / agar | 200 µg/disc | <10 mm |
| Cc1ccc(-n2cc(-c3ccc([N+](=O)[O-])cc3)c(-c3ccon3)n2)cc1 | - | agar diffusion / agar | 2.5 mg/mL | 6 mm |
| COc1ccc(Cc2ccc(OC)c(-c3nnc4sc(-c5ccc(O)cc5)nn34)c2)cc1-c1nnc2sc(-c3ccc(O)cc3)nn12 | ATCC 10231 | agar diffusion / agar | 100 µg/disc | 14 mm |
| Nc1cc(=Nc2ccc(Br)cc2)n2nc(S(N)(=O)=O)sc2n1 | - | agar diffusion | 5000 µg/mL | 4 mm |
| Cc1ccc(-c2nn(-c3ccc(S(N)(=O)=O)cc3)c3nc(-c4ccc(F)cc4)cc(C(F)(F)F)c23)cc1 | MTCC 227 | agar diffusion / agar | 4000 µg/mL | 0 mm |
| CC(=O)c1ccc(-c2nn(-c3ccc(C)cc3)cc2-c2ccc([N+](=O)[O-])cc2)nc1C | - | agar diffusion / agar | 5 mg/mL | 9 mm |
| CC1(C)C=C2N=C3SC(S(N)(=O)=O)=NN3C=C2C(=O)C1 | - | agar diffusion | 5000 µg/mL | 3 mm |
| COc1ccc(/C=C2\SC(=O)N(CC(=O)c3ccc(OC)cc3)C2=O)cc1 | ATCC 90028 | agar diffusion / agar | 5000 µg/mL | 18 mm |
| CCc1cc(N)c(/C=N/NC(=O)N/N=C/c2cc(O)c(CC)cc2N)cc1O | - | agar diffusion / agar | 1 mg/mL | 9 mm |
| C/C=C/N1C(=S)N(CN2CCN(Cc3ccccc3)CC2)NC1C12CC3CC(CC(C3)C1)C2 | IFO 0583 | agar diffusion / agar | 200 µg/disc | <10 mm |
| C/C=C/C1=CC2=CC(=O)[C@](C)(OC(=O)c3c(C)cc(O)cc3OC)C(=O)C2=CO1 | ATCC 64548 | agar diffusion | 50 µg/disc | 0 mm |
| COc1ccc(C2N=C3SC(S(N)(=O)=O)=NN3C(Nc3ccc(C)cc3)=C2C#N)cc1OC | - | agar diffusion | 5000 µg/mL | 5 mm |
| CCc1c(Cc2ccc(OC)c(OC)c2)nc(SCCN(CC)CC)[nH]c1=O | ATCC 10231 | agar diffusion / agar | 200 µg/disc | 21 mm |
| Cc1ccccc1NC(=O)NCCn1c(-c2ccccc2)nc2ccc([N+](=O)[O-])cc2c1=O | ATCC 66027 | broth dilution / agar diffusion | 100 µg/mL | 16 mm |
| CCc1c(Cc2ccc(Cl)cc2)nc(SCCN2C(=O)c3ccccc3C2=O)[nH]c1=O | ATCC 10231 | agar diffusion / agar | 200 µg/disc | 12 mm |
| CCN1CCN(CN2NC(C34CC5CC(CC(C5)C3)C4)N(CC)C2=S)CC1 | IFO 0583 | agar diffusion / agar | 200 µg/disc | <10 mm |
| CSc1ccc(C2=NN(c3ccccc3)C(c3cn(-c4ccccc4)nc3-c3ccc(Cl)cc3)C2)cc1 | MTCC 227 | - | 500 µg/mL | 1 mm |
| O=C(/C=C/c1ccccc1O)c1ccc(C(=O)/C=C/c2ccccc2O)cc1 | ATCC 10231 | agar diffusion / agar | 400 µg/mL | 0 mm |
| O=[N+]([O-])c1nn2cc(-c3ccc(Cl)cc3)nc2s1 | - | agar diffusion | 75 µg/mL | 0 mm |
| NS(=O)(=O)c1ccc(-n2nc(-c3ccc(Cl)cc3)c3c(C(F)(F)F)cc(-c4ccc(-c5ccsc5)cc4)nc32)cc1 | MTCC 227 | agar diffusion / agar | 4000 µg/mL | 0 mm |
| O=C(NCCn1c(-c2ccccc2)nc2ccc([N+](=O)[O-])cc2c1=O)Nc1ccc(Cl)cc1 | ATCC 66027 | broth dilution / agar diffusion | 100 µg/mL | 15 mm |
| CSc1ccc(C2=NN(c3ccccc3)C(c3cn(-c4ccccc4)nc3-c3ccccc3)C2)cc1 | MTCC 227 | - | 1000 µg/mL | 0 mm |
| Clc1ccccc1C(c1ccccc1)(c1ccccc1)n1ccnc1 | ATCC 10231 | agar diffusion / agar | 200 µg/disc | 38 mm |
| Cc1ccc2c(c1)sc1nc(=O)cc(C(=O)NNc3ccc(Cl)cc3)n12 | - | agar diffusion | 5000 µg/mL | 4 mm |
| O=C1CCCC2=C1C(c1cccc(C3C4=C(CCCC4=O)OC4=C3C(=O)CCC4)c1)C1=C(CCCC1=O)O2 | ATCC 10231 | agar diffusion | 20 µg/disc | 0 mm |
| COc1ccc(Cc2ccc(OC)c(-c3nnc4sc(-c5cnccn5)nn34)c2)cc1-c1nnc2sc(-c3cnccn3)nn12 | ATCC 10231 | agar diffusion / agar | 100 µg/mL | 25 mm |
| Cc1ccc(-n2cc(-c3ccc([N+](=O)[O-])cc3)c(-c3ccnc4nncn34)n2)cc1 | - | agar diffusion / agar | 2.5 mg/mL | 7 mm |
| O=C(/C=C/c1cccc([N+](=O)[O-])c1)c1ccc(C(=O)/C=C/c2cccc([N+](=O)[O-])c2)cc1 | ATCC 10231 | agar diffusion / agar | 400 µg/mL | 0 mm |
| NS(=O)(=O)c1ccc(-n2nc(-c3ccccc3)c3c(C(F)(F)F)cc(-c4ccc(-c5ccsc5)cc4)nc32)cc1 | MTCC 227 | agar diffusion / agar | 4000 µg/mL | 0 mm |
| CC1=C2C(=O)CC(C)(C)C=C2N=C2SC(S(N)(=O)=O)=NN21 | - | agar diffusion | 5000 µg/mL | 4 mm |
| COc1ccc(-c2cn3nc(Cl)sc3n2)cc1 | - | agar diffusion | 75 µg/mL | 12 mm |
| CC1(C)CCC2=C(C1=O)C(c1cccc(C3C4=C(CCC(C)(C)C4=O)OC4=C3C(=O)C(C)(C)CC4)c1)C1=C(CCC(C)(C)C1=O)O2 | ATCC 10231 | agar diffusion | 20 µg/disc | 8 mm |
| O=C(NCCn1c(-c2ccccc2)nc2ccc([N+](=O)[O-])cc2c1=O)NC1CCCCC1 | ATCC 66027 | broth dilution / agar diffusion | 100 µg/mL | 13 mm |
| O=[N+]([O-])c1nn2cc(-c3ccc(F)cc3)nc2s1 | - | agar diffusion | 50 µg/mL | 22 mm |
| C/C=C/N1C(=S)N(CN2CCN(c3ccccc3)CC2)NC1C12CC3CC(CC(C3)C1)C2 | IFO 0583 | agar diffusion / agar | 200 µg/disc | <10 mm |
| O=C(CN1C(=O)S/C(=C\c2c(Cl)cccc2Cl)C1=O)c1ccc([N+](=O)[O-])cc1 | ATCC 90028 | agar diffusion / agar | 5000 µg/mL | 16 mm |
| Cc1ccc(Oc2ccc(-c3nc4ccccc4c4cc5ccccc5n34)cc2)cc1 | - | agar diffusion | 1000 µg/mL | 9 mm |
| [Cl][Cu+].[O-]c1cc2ccccc2cc1/C=N/NC(=S)N/N=C/c1cc2ccccc2cc1O | - | agar diffusion / agar | 2 mg/mL | 0 mm |
| O=C(/C=C/c1ccc(Br)cc1)c1ccc(C(=O)/C=C/c2ccc(Br)cc2)cc1 | ATCC 10231 | agar diffusion / agar | 400 µg/mL | 0 mm |
| COc1ccc(-c2nn(-c3ccccc3)cc2C2CC(c3ccc(Cl)cc3Cl)=NN2c2ccccc2)cc1 | MTCC 227 | - | 500 µg/mL | 0 mm |
| N#Cc1ccc(C(=O)CN2C(=O)S/C(=C\c3c(Cl)cccc3Cl)C2=O)cc1 | ATCC 90028 | agar diffusion / agar | 5000 µg/mL | 22 mm |
| CC1(C)CC(=O)C2=C(C1)OC1=C(C(=O)CC(C)(C)C1)C2c1cccc(C2C3=C(CC(C)(C)CC3=O)OC3=C2C(=O)CC(C)(C)C3)c1 | ATCC 10231 | agar diffusion | 20 µg/disc | 0 mm |
| COc1ccc(Cc2ccc(OC)c(-c3nnc4sc(-c5ccc(C)cc5)nn34)c2)cc1-c1nnc2sc(-c3ccc(C)cc3)nn12 | ATCC 10231 | agar diffusion / agar | 100 µg/disc | 12 mm |
| O=C1CC(c2ccccc2)CC2=C1C(c1ccc(C3C4=C(CC(c5ccccc5)CC4=O)OC4=C3C(=O)CC(c3ccccc3)C4)cc1)C1=C(CC(c3ccccc3)CC1=O)O2 | ATCC 10231 | agar diffusion | 20 µg/disc | 7 mm |
| COc1ccc(/C=C2\SC(=O)N(CC(=O)c3ccc4ccccc4c3)C2=O)cc1 | ATCC 90028 | agar diffusion / agar | 5000 µg/mL | 16 mm |
| CSC1=NC(c2cccc3cc4ccccc4cc23)C(C#N)=C(N)N1 | MTCC 227 | agar diffusion | 25 µg/mL | 17 mm |
| CC1(C)CCC2=C(C1=O)C(c1ccc(C3C4=C(CCC(C)(C)C4=O)OC4=C3C(=O)C(C)(C)CC4)cc1)C1=C(CCC(C)(C)C1=O)O2 | ATCC 10231 | agar diffusion | 140 µg/disc | 0 mm |
| O=C(NCCn1c(-c2ccccc2)nc2ccc([N+](=O)[O-])cc2c1=O)Nc1cc(C(F)(F)F)cc(C(F)(F)F)c1 | ATCC 66027 | broth dilution / agar diffusion | 100 µg/mL | 17 mm |
| COc1ccc(C2C(C#N)=C(N)N=C3Sc4cc(C)ccc4N32)cc1OC | - | agar diffusion | 5000 µg/mL | 15 mm |
| CCCCN(CCCC)CC(O)c1cc(Cl)cc2c1-c1ccc(Cl)cc1/C2=C/c1ccc(Cl)cc1 | IFO 0583 | agar diffusion / agar | 200 µg/disc | <10 mm |
| COc1ccc(Cc2ccc(OC)c(-c3nnc4sc(Cc5ccccc5)nn34)c2)cc1-c1nnc2sc(Cc3ccccc3)nn12 | ATCC 10231 | agar diffusion / agar | 100 µg/disc | 24 mm |
| Cc1ccc(-c2cn3nc(Cl)sc3n2)cc1 | - | agar diffusion | 75 µg/mL | 0 mm |

7 of the rows above, restated:

O=[N+]([O-])c1nn2cc(-c3ccc(F)cc3)nc2s1 ; method: agar diffusion ; dose: 50 µg/mL ; value: 22 mm
C/C=C/C1=CC2=CC(=O)[C@](C)(OC(=O)c3c(C)cc(O)cc3OC)C(=O)C2=CO1 ; strain: ATCC 64548 ; method: agar diffusion ; dose: 50 µg/disc ; value: 0 mm
Cc1ccc(-c2nn(-c3ccc(S(N)(=O)=O)cc3)c3nc(-c4ccc(F)cc4)cc(C(F)(F)F)c23)cc1 ; strain: MTCC 227 ; method: agar diffusion / agar ; dose: 4000 µg/mL ; value: 0 mm
O=C(/C=C/c1ccccc1O)c1ccc(C(=O)/C=C/c2ccccc2O)cc1 ; strain: ATCC 10231 ; method: agar diffusion / agar ; dose: 400 µg/mL ; value: 0 mm
Cc1ccc2c(c1)sc1nc(=O)cc(C(=O)NNc3ccc(Cl)cc3)n12 ; method: agar diffusion ; dose: 5000 µg/mL ; value: 4 mm
Cc1ccc(-n2cc(-c3ccc([N+](=O)[O-])cc3)c(-c3ccnc4nncn34)n2)cc1 ; method: agar diffusion / agar ; dose: 2.5 mg/mL ; value: 7 mm
CSc1ccc(C2=NN(c3ccccc3)C(c3cn(-c4ccccc4)nc3-c3ccccc3)C2)cc1 ; strain: MTCC 227 ; dose: 1000 µg/mL ; value: 0 mm

Zone: diameter of growth inhibition. Conditions beyond the fields shown may differ between rows.